# Sequence variants of PSTVd loop 1 after infection

PSTVd intermediate strain, loop 1: wild type CCUCGG, pool pattern CNNNNG; 5' to 3', with the closing base pair.

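A pool of all variants was put on leaves of three Nicotiana benthamiana plants. Progeny were sequenced from the inoculated region (day 5), the margin of the inoculated leaf (day 10) and systemic leaves (day 12).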

Numbers give reads per thousand; 0 = not seen among the reads, higher = more abundant.
Each value is the mean of three plants.
"Pool" is the share in the plasmid pool used as inoculum, on the same scale.
The inoculated region was read from the minus strand, the other sites from the plus strand.
For reference, wild type rose from 20.1 per thousand in the pool to 197, 219, 222 (inoculated region), 828, 823, 779 (leaf margin) and 914, 907, 857 (systemic leaves).
Sequences that differ at fixed positions probably stem from PCR or sequencing errors, and defective variants can be carried along by functional ones.
Samples held 32,791 to 60,834 reads, so the smallest values rest on one or two reads.

For CUCCCG (pool 3.64) the result was inoculated region 2.71; leaf margin 0; systemic leaves 0.
For CACCGG (pool 3.28) the result was inoculated region 2.71; leaf margin 1.52; systemic leaves 0.
For CGGCUA (pool 0.276) the result was inoculated region 0.0307; leaf margin 0; systemic leaves 0.
For CUGCGG (pool 4.41) the result was inoculated region 2.83; leaf margin 0; systemic leaves 0.
For CCGGAG (pool 3.72) the result was inoculated region 2.95; leaf margin 0; systemic leaves 0.
For CUAUUG (pool 5.05) the result was inoculated region 2.88; leaf margin 0; systemic leaves 0.0384.
For GCGCGG (pool 0.0131) the result was inoculated region 0; leaf margin 0; systemic leaves 0.
For CAAUUG (pool 3.73) the result was inoculated region 2.68; leaf margin 0.00704; systemic leaves 0.0110.
For CAAACG (pool 3.67) the result was inoculated region 2.87; leaf margin 0.00704; systemic leaves 0.00548.
For CUCUAG (pool 4.57) the result was inoculated region 2.97; leaf margin 0.00663; systemic leaves 0.0232.
For CCAGGG (pool 3.17) the result was inoculated region 2.76; leaf margin 0.0172; systemic leaves 0.
For CGACAG (pool 3.36) the result was inoculated region 2.86; leaf margin 0; systemic leaves 0.
For CUAGGG (pool 3.27) the result was inoculated region 2.57; leaf margin 0; systemic leaves 0.
For CUCCUG (pool 4.55) the result was inoculated region 2.73; leaf margin 0.0141; systemic leaves 0.0175.
For CUGGAG (pool 3.92) the result was inoculated region 2.50; leaf margin 0.0203; systemic leaves 0.
For CGCUCG (pool 3.97) the result was inoculated region 2.94; leaf margin 0.157; systemic leaves 0.00548.
For CUCUUG (pool 4.02) the result was inoculated region 2.86; leaf margin 0.0168; systemic leaves 0.0110.
For ACUCGU (pool 0.0131) the result was inoculated region 0.0240; leaf margin 0.0141; systemic leaves 0.0490.
For CCUUUG (pool 3.55) the result was inoculated region 2.84; leaf margin 0.00704; systemic leaves 0.
For CGAUAG (pool 3.81) the result was inoculated region 2.77; leaf margin 0.0238; systemic leaves 0.
For CCGCUG (pool 3.95) the result was inoculated region 2.82; leaf margin 0; systemic leaves 0.0110.
For CUCGGA (pool 0.0131) the result was inoculated region 0.0245; leaf margin 0; systemic leaves 0.0115.
For AUAUAG (pool 0.0131) the result was inoculated region 0; leaf margin 0; systemic leaves 0.

Extract of 3 entries:

CUAGGG (pool 3.27) read inoculated region 2.57; leaf margin 0; systemic leaves 0.
CGAUAG (pool 3.81) read inoculated region 2.77; leaf margin 0.0238; systemic leaves 0.
CACCGG (pool 3.28) read inoculated region 2.71; leaf margin 1.52; systemic leaves 0.

The measurements come from Wu et al. 2024 (doi:10.1371/journal.ppat.1012142).